The subject of experiment [1] is Escherichia coli. The experiment in a line: Ratio of Kcat to Km for Escherichia coli beta-lactamase Toho-1 N104D mutant assessed as compound hydrolysis by spectrophotometry.
The test system of experiment [2] is Escherichia coli. Description: Ratio of Kcat to Km for Escherichia coli beta-lactamase Toho-1 […] mutant assessed as compound hydrolysis by spectrophotometry.
The subject of experiment [3] is Escherichia coli. The experiment in a line: Ratio of Kcat to Km for Escherichia coli beta-lactamase Toho-1 D240A mutant assessed as compound hydrolysis by spectrophotometry.
The subject of experiment [4] is Escherichia coli. Description: Activity of Escherichia coli beta-lactamase Toho-1 G232A mutant assessed as compound hydrolysis by spectrophotometry.
Experiment [5] has as its system Escherichia coli. The experiment in a line: Activity of Escherichia coli beta-lactamase Toho-1 D240S mutant assessed as compound hydrolysis by spectrophotometry.
Experiment [6] deals with Escherichia coli. The experiment in a line: Ratio of Kcat to Km for Escherichia coli beta-lactamase Toho-1 C69A mutant assessed as compound hydrolysis by spectrophotometry.
Experiment [7] relates to Escherichia coli. The experiment in a line: Activity of Escherichia coli beta-lactamase Toho-1 C69A mutant assessed as compound hydrolysis by spectrophotometry.
Experiment [8] has as its system Escherichia coli. The experiment in a line: Activity of Escherichia coli beta-lactamase Toho-1 […] mutant assessed as compound hydrolysis by spectrophotometry.
Experiment [9] concerns Escherichia coli. The experiment in a line: Activity of Escherichia coli beta-lactamase Toho-1 N104D mutant assessed as compound hydrolysis by spectrophotometry.
Experiment [10] deals with Escherichia coli. The experiment in a line: Activity of Escherichia coli beta-lactamase Toho-1 D240A mutant assessed as compound hydrolysis by spectrophotometry.
Experiment [11] has as its system Escherichia coli. The experiment in a line: Ratio of Kcat to Km for Escherichia coli beta-lactamase Toho-1 G232A mutant assessed as compound hydrolysis by spectrophotometry.
Experiment [12] has as its system Escherichia coli. The experiment in a line: Ratio of Kcat to Km for Escherichia coli beta-lactamase Toho-1 D240S mutant assessed as compound hydrolysis by spectrophotometry.
The subject of experiment [13] is Escherichia coli. Description: Activity of Escherichia coli beta-lactamase Toho-1 N104A mutant assessed as compound hydrolysis by spectrophotometry.
The test system of experiment [14] is Escherichia coli. Description: Ratio of Kcat to Km for Escherichia coli beta-lactamase Toho-1 F160T mutant assessed as compound hydrolysis by spectrophotometry.
Experiment [15] concerns Escherichia coli. The experiment in a line: Ratio of Kcat to Km for Escherichia coli beta-lactamase Toho-1 N104A mutant assessed as compound hydrolysis by spectrophotometry.
Experiment [16] deals with Escherichia coli. The experiment in a line: Activity of Escherichia coli beta-lactamase Toho-1 F160T mutant assessed as compound hydrolysis by spectrophotometry.

The term Km denotes the concentration of substrate that gives half-maximal velocity. A word on the kcat: it is the maximal rate divided by the concentration of active sites.

For the compound `CC1(C)S[C@@H]2[C@H](NC(=O)Cc3ccccc3)C(=O)N2[C@H]1C(=O)O`, the kcat/Km in the experiment on Escherichia coli [1] came out at 7.4 ×10⁵ /s/M; with Escherichia coli [2] it was 6.1 ×10⁶ /s/M; in the experiment with Escherichia coli [3], 1.8 ×10⁶ /s/M; with Escherichia coli [6] it was 3.5 ×10⁶ /s/M; with Escherichia coli [11] it was 2.3 ×10⁶ /s/M; in the experiment on Escherichia coli [12], 2.2 ×10⁶ /s/M. Besides, the kcat/Km was 2.9 ×10⁶ /s/M with Escherichia coli [14] and 1.1 ×10⁶ /s/M in the experiment on Escherichia coli [15]. For the same compound, the Km with Escherichia coli [4] was found to be 25 µM; in the experiment on Escherichia coli [5], 17 µM; with Escherichia coli [7] it was 16 µM; in the experiment on Escherichia coli [8] it was 46 µM; in the experiment with Escherichia coli [9], 51 µM; with Escherichia coli [10], 16 µM. The Km with Escherichia coli [13] turned out to be 29 µM; in the experiment with Escherichia coli [16], 22 µM. Moreover, the catalytic constant (kcat) came out at 37 s⁻¹ in the experiment with Escherichia coli [5], 38 s⁻¹ in the experiment with Escherichia coli [9] and 64 s⁻¹ in the experiment on Escherichia coli [16].

These data come from ChEMBL document CHEMBL1687837, “Roles of residues Cys69, Asn104, Phe160, Gly232, Ser237, and Asp240 in extended-spectrum beta-lactamase Toho-1” (2011).
